Results of unrelated studies side by side (data: NIAID ChemDB).

All rows: whole-cell or culture tests; agent: Candida albicans

An empty or dashed field is not shown. ECn: concentration that inhibits the pathogen or its effect by n%. Two numbers with a dash give a range or band. Lines come from different laboratories, so protocols vary. MIC50, MIC90 and the like: level of inhibition, or share of isolates inhibited.

SMILES,measure,read by,strain,value
O=C(O)c1ccc(NC(=S)N/N=C/c2ccccc2O)cc1,MIC,,,2.82 µM
CCCCCCC[C@@H]1OO[C@H](CCCCCCC)[C@@H]2O[C@@H]21,EC50,,,500–1000 µM
COc1ccc(/C=N/NC(=S)Nc2ccc(C(=O)O)cc2)cc1,MIC,,,3.01 µM
Cc1nccn1CC(=O)CN1CCN(C(c2ccccc2)c2ccc(Cl)cc2)CC1,MIC,broth dilution,ATCC 76615,25 µg/mL
COc1ccc(/C=N/NC(=S)Nc2ccc(C(=O)NO)cc2)cc1OC,MIC,,,1.65 µM
Cc1ccc(-n2nc(C)c(C3C(C#N)=C(N)OC4=C3C(=O)CC(C)(C)C4)c2Oc2ccc(Cl)cc2)cc1,MIC,,MTCC 227,250 µg/mL
C[C@H]1OC(Oc2ccc3c(=O)c(-c4ccc(O)cc4)coc3c2)[C@@H](O)[C@@H](O)[C@H]1O,MIC,,B02630,15 µg/mL
C[C@@H]1C=CC(CC(=O)OCC2[C@H]3C[C@@H]4C[C@H](C3)C(Br)[C@H]2C4)OO1,EC50,,,250–500 µM
O=C(O)c1ccc(NC(=S)N/N=C/c2cccc([N+](=O)[O-])c2)cc1,MIC,,,2.31 µM
CC(C)CCCCCCCCCC1CC(=O)N[C@@H](CC(=O)O)C(=O)N[C@@H](CC(C)C)C(=O)N[C@@H](CC(C)C)C(=O)N[C@@H](C(C)C)C(=O)N[C@@H](C(C)C)C(=O)N[C@@H](CCC(=O)O)C(=O)N[C@@H](CC(C)C)C(=O)O1,MIC,,Clinical isolate,7 µg/mL
CCC(C)n1ncn(-c2ccc(N3CCN(c4ccc(OC[C@H]5CO[C@](Cn6cncn6)(c6ccc(Cl)cc6Cl)O5)cc4)CC3)cc2)c1=O,MIC,,KCTC 1940,>100 µg/mL
COC(=O)[C@]1(C)CCC[C@]2(C)c3ccc(C(C)C)cc3C(=O)C[C@@H]12,MIC,,CGMCC 2.2086,>100 µg/mL
C[C@H]1[C@H](O)[C@@H](C)/C=C/C=C/C=C/C=C/C=C/C=C/C=C/[C@H](O[C@@H]2O[C@H](C)[C@@H](O)[C@H](N)[C@@H]2O)C[C@@H]2O[C@](O)(C[C@@H](O)C[C@@H](O)CC[C@H](O)[C@@H](O)C[C@@H](O)CC(=O)O[C@H]1C)C[C@H](O)[C@H]2C(=O)O,MIC,broth dilution,ATCC 32354,1.48 µM
COC(=O)[C@]1(C)CCC[C@]2(C)c3ccc(C(C)C)cc3-c3[nH]c4c(F)cccc4c3C12,MIC,,CGMCC 2.2086,31.2 µg/mL
O=C(Cn1nnc2ccccc21)N1CCN(C(c2ccccc2)c2ccc(Cl)cc2)CC1,MIC,broth dilution,ATCC 76615,>400 µg/mL
C1C2CC3CC1CC(C2)C3[C@H]1OOC[C@H]2O[C@@H]12,EC50,,,125–250 µM
COc1ccc(Oc2c(C3C(C#N)=C(N)OC4=C3C(=O)CCC4)c(C)nn2-c2ccc(C)cc2)cc1,MIC,,MTCC 227,200 µg/mL
O=C(O)c1ccccc1,EC50,broth dilution / turbidity,ATCC 90028,0.19 µM
CN[C@@H]1[C@H](O)[C@@H](O)[C@H](O[C@H]2c3cc(C)c(C(=O)N[C@H](C)C(=O)O)c(O)c3-c3c(cc4c(c3O)C(=O)c3cc(OC)cc(O)c3C4=O)[C@@H]2O)O[C@@H]1C,MIC,,IAM4888,3.1 µg/mL
C[C@@H]1C=CC(CC(=O)OC2C3CC4CC(C3)CC2C4)OO1,EC50,,,125–250 µM
Cc1ccc(-n2nc(C)c(C3C(C#N)=C(N)OC4=C3C(=O)CCC4)c2Oc2ccc(Cl)cc2)cc1,MIC,,MTCC 227,250 µg/mL
Cn1c(-c2ccc3c(c2)C(C)(C)CCC3(C)C)nc2cc(C(=O)O)ccc21,MIC,,,50 µg/mL
COc1cc(/C=C/C=O)ccc1O,MIC90,,Clinical isolates,100–250 µg/mL
O=Cc1cc(O)ccc1O,EC50,broth dilution / turbidity,ATCC 10231,0.59 µM
CCOC(=O)c1cn(CC)c2cc(C)ccc2c1=O,MIC,,ATCC 10231,>100 µg/mL
Cc1nn(-c2ccccc2)c(Oc2ccccc2)c1C1C(C#N)=C(N)OC2=C1C(=O)CCC2,MIC,,MTCC 227,>1000 µg/mL
CC(=O)OC1C=COC=C2CC34SSC5(CC6=COC=CC(OC(C)=O)C6N5C3=O)C(=O)N4C21,MIC,,E83,10 µg/mL
C[C@@H]1[C@H](O)[C@@H](C)/C=C/C=C/CC/C=C/C=C/C=C/C=C/[C@H](O[C@@H]2O[C@H](C)[C@@H](O)[C@H](N)[C@@H]2O)C[C@@H]2O[C@](O)(C[C@@H](O)[C@H](O)CC[C@@H](O)C[C@@H](O)C[C@@H](O)CC(=O)O[C@H]1C)C[C@H](O)[C@H]2C(=O)O,MIC,,ATCC 10231,0.375 µg/mL
O=C(CN1CCN(C(c2ccccc2)c2ccc(Cl)cc2)CC1)Cn1ccnc1,MIC,broth dilution,ATCC 76615,6.2 µg/mL
CN(C/C=C/c1ccccc1)Cc1cccc2ccccc12,MIC,,Clinical isolate delta 63,50 µg/mL
COC(=O)[C@]1(C)CCC[C@]2(C)c3ccc(C(C)C)cc3-c3[nH]c4ccc(Cl)cc4c3C12,MIC,,CGMCC 2.2086,>100 µg/mL
O=C(NO)c1ccc(NC(=S)N/N=C/c2ccc(Cl)cc2)cc1,MIC,,,1.55 µM
COC(=O)[C@]1(C)CCC[C@]2(C)c3ccc(C(C)C)cc3-c3[nH]c4c(Cl)cccc4c3C12,MIC,,CGMCC 2.2086,>100 µg/mL
C[C@@H](c1nc(-c2ccc(C#N)cc2)cs1)[C@](O)(Cn1cnnc1)c1ccc(F)cc1F,MIC,,Isogenic isolate 7 MDR1 (25X),≤0.008 µg/mL
Cc1ccc(/C=N/NC(=S)Nc2ccc(C(=O)O)cc2)cc1,MIC,,,2.36 µM
O=C(O)/C=C/c1ccccc1,EC50,broth dilution / turbidity,PYCC 3436,0.45 µM
COc1ccc(/C=N/NC(=S)Nc2ccc(C(=O)NO)cc2)cc1,MIC,,,1.56 µM
C1C2CC3CC1CC(C2)C3[C@@]12COOC[C@@H]1O2,EC50,,,125–250 µM
COc1ccc(Oc2c(C3C(C#N)=C(N)OC4=C3C(=O)CC(C)(C)C4)c(C)nn2-c2ccc(C)cc2)cc1,MIC,,MTCC 227,500 µg/mL
O=C1N2C3C(=COC=CC3O)CC23SSC12CC1=COC=CC(O)C1N2C3=O,EC50,,E83,2.5 µg/mL
COc1cc(O)c2c(c1)C(=O)c1c(cc3c(c1O)-c1c(cc(C)c(C(=O)N[C@H](C)C(=O)O)c1O)[C@H](O[C@@H]1O[C@H](C)[C@H](N)[C@H](O[C@@H]4OC[C@@H](O)[C@H](O)[C@@H]4O)[C@H]1O)[C@H]3O)C2=O,MIC,,A9540,3.1 µg/mL
CC(C)(C)[C@](O)(COc1ccc(Cl)cc1)Cn1cncn1,MLC90,,,>0.08 µg/mL
CCOc1ccc2[nH]c3c(c2c1)C1[C@](C)(C(=O)OC)CCC[C@]1(C)c1ccc(C(C)C)cc1-3,MIC,,CGMCC 2.2086,62.5 µg/mL
C[C@@H]1O[C@@H](OC[C@H]2O[C@@H](Oc3c(-c4ccc(O)cc4)oc4cc(O)cc(O)c4c3=O)[C@H](O)[C@@H](O)[C@@H]2O)[C@H](O)[C@H](O)[C@H]1O,MIC,,ATCC 10231,320 µg/mL
O=C(NO)c1ccc(NC(=S)N/N=C/c2ccccc2)cc1,MIC,,,1.54 µM

Repeating the first 4 entries:

SMILES,measure,read by,strain,value
O=C(O)c1ccc(NC(=S)N/N=C/c2ccccc2O)cc1,MIC,,,2.82 µM
CCCCCCC[C@@H]1OO[C@H](CCCCCCC)[C@@H]2O[C@@H]21,EC50,,,500–1000 µM
COc1ccc(/C=N/NC(=S)Nc2ccc(C(=O)O)cc2)cc1,MIC,,,3.01 µM
Cc1nccn1CC(=O)CN1CCN(C(c2ccccc2)c2ccc(Cl)cc2)CC1,MIC,broth dilution,ATCC 76615,25 µg/mL